The values that follow come from PubChem BioAssay AID1445 (SRMLSC, 2008).

Chains of the proteins cited; added tags and fusions are not shown. Lines headed by an entry give the natural chain unless they say otherwise; changes in a name come on top.
UniProt O96935: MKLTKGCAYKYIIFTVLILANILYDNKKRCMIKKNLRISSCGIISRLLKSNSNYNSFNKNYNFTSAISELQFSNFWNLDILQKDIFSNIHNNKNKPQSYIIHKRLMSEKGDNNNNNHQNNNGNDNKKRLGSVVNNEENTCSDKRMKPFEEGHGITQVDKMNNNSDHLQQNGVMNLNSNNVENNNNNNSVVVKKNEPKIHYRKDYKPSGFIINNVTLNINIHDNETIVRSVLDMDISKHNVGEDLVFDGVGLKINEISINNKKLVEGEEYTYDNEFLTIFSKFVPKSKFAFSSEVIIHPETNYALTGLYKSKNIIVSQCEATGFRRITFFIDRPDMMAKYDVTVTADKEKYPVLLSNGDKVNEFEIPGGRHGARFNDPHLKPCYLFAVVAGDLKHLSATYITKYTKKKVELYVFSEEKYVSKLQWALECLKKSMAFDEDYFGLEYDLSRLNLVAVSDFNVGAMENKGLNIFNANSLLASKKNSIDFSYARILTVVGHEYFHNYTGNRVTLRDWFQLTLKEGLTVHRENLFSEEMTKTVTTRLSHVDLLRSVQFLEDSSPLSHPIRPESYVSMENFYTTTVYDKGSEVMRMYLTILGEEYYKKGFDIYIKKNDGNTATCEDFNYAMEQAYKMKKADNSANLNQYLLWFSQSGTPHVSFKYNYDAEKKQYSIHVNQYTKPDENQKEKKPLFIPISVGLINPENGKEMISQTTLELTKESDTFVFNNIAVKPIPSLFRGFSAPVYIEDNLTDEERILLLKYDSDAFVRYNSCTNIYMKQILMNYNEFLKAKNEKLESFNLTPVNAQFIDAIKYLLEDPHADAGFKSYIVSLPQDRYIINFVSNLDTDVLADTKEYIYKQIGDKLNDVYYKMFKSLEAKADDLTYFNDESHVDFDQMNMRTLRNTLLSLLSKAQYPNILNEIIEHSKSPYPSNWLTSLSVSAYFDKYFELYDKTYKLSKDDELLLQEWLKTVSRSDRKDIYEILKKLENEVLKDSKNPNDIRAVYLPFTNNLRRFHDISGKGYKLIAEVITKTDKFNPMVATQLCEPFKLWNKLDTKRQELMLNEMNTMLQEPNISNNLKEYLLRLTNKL

Broadly, the inhibition is the drop in the measured response relative to a control, in per cent.

The entries are a selection whose mix differs from that of the whole data set. Measured potencies and affinities stand elsewhere. Activity calls are given as the source filed them.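 Rule for the calls: active = primary inhibition above the hit cutoff, then over 50% inhibition at one or more dose response concentrations (cut at about 23% in these data, passing the limit was not always enough); inconclusive = conflicting primary data, or primary hits not chosen for dose response; inactive = low primary inhibition, or under 50% at every dose.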

For this assay, the target named is Aminopeptidase N (Plasmodium falciparum (isolate 3D7)) (UniProt O96935). Kind of assay: P. falciparum M1AAP inhibitors, biochemical, fluorogenic H-Leu-NHMec substrate, 1536-well (AID 1445).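 Note: plate controls were DMSO full reaction for no effect and no enzyme background for full effect.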 Particulars: recombinant M1AAP, H-Leu-NHMec fluorogenic kinetic assay; at 30 µM; active compounds read high.
Regarding `O=C(OC1CN2CCC1CC2)c1ccc(Cl)cc1` (stereo unspecified), the inhibition was inactive: -1.41%.
The result for `COc1cc(C(=O)NCC2(N3CCOCC3)CCCCC2)cc(Cl)c1OC(C)C` reads inactive: 5.65%; that for `O=[As](O)(O)c1cccnc1`, inactive: 0.82%.
For `O=[As](O)(c1cccc(O)c1)c1cccc(O)c1`, the inhibition is inactive: 3.55%.
For `Cc1cccc(OCC(=O)OC2CN3CCC2CC3)c1` (stereo unspecified), the inhibition is inactive: 5.19%.
Turning to `Nc1cccc2c([As](=O)(O)O)cccc12`, the inhibition is inactive: -0.6%.
`Cc1ccc(NCCc2c([N+](=O)[O-])cc([N+](=O)[O-])cc2[N+](=O)[O-])cc1`: the inhibition was inactive: 8.89%.
For the molecule `CCCOP(=S)(Nc1nc(N)cc(=O)[nH]1)OCCC`, the inhibition was inactive: -1.88%.
In the case of `COc1cc(C2NCCC3(OCCO3)C2(C)C)cc(OC)c1OC` (stereo unspecified), the inhibition was inactive: 1.15%.
With `CCOP(=O)(Nc1cccc2ccccc12)OCC`, the inhibition was inactive: 6.05%.
The result for `O=P1(Nc2ccccn2)COc2ccccc2OC1` reads inactive: 8.23%; that for `CCOP(=O)(Nc1ccc(C)cn1)OCC`, inactive: -4.97%; that for `Clc1n[nH]nc1-c1nn[nH][15n]1`, inactive: 22.6%.
Regarding `CC(C)(C)C(=O)NC(Sc1ncccn1)C(Cl)(Cl)Cl` (stereo unspecified), the inhibition is inactive: -0.4%.
For the molecule `CN(C(=O)Cc1ccc(Cl)c(Cl)c1)[C@@H]1CCCC[C@H]1N1CCCC1`, the inhibition was inactive: -3.71%.
As for `CC(C)/C=N\N=C(\N)N[N+](=O)[O-]`, the inhibition is inactive: 3.44%.
Consider `O=[As](O)(c1ccccc1Br)c1ccccc1Br`, for which the inhibition is inactive: 4.03%.
Take `Cc1nn(-c2ccccc2)c2c1P(=O)(N1CCOCC1)N(C)C(c1ccccc1)=N2` (stereo unspecified): the inhibition was inactive: -0.77%.
Consider `CC1CCC(C(C)C)C(OP(=O)(Nc2ccccn2)c2ccccc2)C1` (stereo unspecified), for which the inhibition was inactive: 6.17%.
The result for `CN(C)C1(CNC(=O)c2ccc(S(C)(=O)=O)cc2)CCCCC1` reads inactive: -1.08%; that for `O=C(/C=C/c1ccccc1)OC1CN2CCC1CC2` (stereo unspecified), inactive: -1.56%; that for `O=P1(Nc2ncccn2)COc2ccccc2OC1`, inactive: 10.6%.
Turning to `Nc1cccc([As](=O)(O)c2ccccc2)c1`, the inhibition was inactive: 0.95%.
Regarding `O=P1(Nc2ccc(Br)cn2)COc2ccccc2OC1`, the inhibition is inactive: 2.66%.
Consider `O=[As](O)(c1cccs1)c1cccs1`, for which the inhibition is inactive: 2.13%.
Take `Cc1ccc(OCC(=O)OC2CN3CCC2CC3)cc1` (stereo unspecified): the inhibition was inactive: 4.69%.
